Record: PubChem BioAssay AID504761 (Drosophila RNAi Screening Center, 2011)
The deposit covers about 22,000 reagents; below is a random part of those that have a named target and a result. In the full data, 116 (0.52%) are marked active. 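Calls depend on retest data that are not deposited; infection was ranked per plate without normalising between plates; the unit of the infection score is not given.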 Raw values are not corrected between plates. Names joined by + are all predicted targets of the reagent. Reagent sequences are not shown. Not stated in the record: the amount of reagent, the time to read-out.

Assay: 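Fly genes whose silencing reduces dengue virus type 2 infection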 (primary screen)
Cells: D.Mel-2 cells from Drosophila
Knock-down reagent: long dsRNA against Drosophila genes
Treatment: infection with dengue virus type 2; dose and infection time not stated
Detection: 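Per well on two replicate plates, imaging gave the percent of cells positive for viral envelope protein, ranked by infection, and a nuclear count of cells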
Scale: infection score: higher = more virus-infected cells; cell count: higher = more cells in the well
Rule for the call: 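Very low infection ranking in both replicate wells (chance probability at most 0.065), then a retest showing infection dropped 1.5-fold or more at p below 0.05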
Calls: active = confirmed: knock-down lowers infection; inactive = not picked or not confirmed

gene | PubChem SID | infection score, replicate 1 | infection score, replicate 2 | cell count, replicate 1 | cell count, replicate 2 | call
kis | SID104180313 | 15.2 | 10.4 | 6500 | 6837 | inactive
kis | SID104180417 | 1.54 | 11.5 | 5661 | 5667 | inactive
kis | SID104180615 | 9.55 | 6.38 | 4826 | 4857 | inactive
Epac | SID104184761 | 8.79 | 5.08 | 6121 | 6104 | inactive
Epac | SID104184788 | 44 | 13.9 | 6045 | 6616 | inactive
Epac | SID104184789 | 7.51 | 10.8 | 6449 | 3751 | inactive
pasi2 | SID104196172 | 11 | 3.96 | 6168 | 7399 | inactive
CG31068 | SID104193612 | 2.22 | 5.5 | 6249 | 5960 | inactive
Rpn13R | SID104198196 | 1.57 | 1.05 | 6165 | 6487 | inactive
Rpn13R | SID104202829 | 8.58 | 4.36 | 5735 | 6240 | inactive
CG32055 | SID104190458 | 15.6 | 17.4 | 5537 | 5582 | inactive
CG31373 | SID104195844 | 5.27 | 8.38 | 5925 | 6101 | inactive
CG3323 | SID104198095 | 2.55 | 3.57 | 6430 | 6504 | inactive
Bx | SID104202405 | 2.64 | 4.53 | 6369 | 5767 | inactive
Bx | SID104207050 | 9.87 | 8.7 | 4317 | 5060 | inactive
CG8668 | SID104182893 | 7.12 | 4.85 | 6333 | 6365 | inactive
CG8668 | SID104203493 | 5.25 | 3.06 | 6186 | 6141 | inactive
CG17260 | SID104180289 | 1.98 | 2.15 | 6307 | 6466 | inactive
CG17260 | SID104207959 | 13 | – | 2709 | 365 | inactive
CG32944 | SID104191930 | 2.65 | 1.15 | 6687 | 6343 | inactive
CG32944 | SID104192133 | 2.28 | 1.06 | 6887 | 6591 | inactive
Dhc36C | SID104183107 | 0.67 | 0.94 | 6700 | 6371 | active
mu2 | SID104188518 | 19.4 | 11.9 | 4746 | 5918 | inactive
mu2 | SID104201252 | 0.75 | 2.61 | 5997 | 6236 | inactive
Nepl5 | SID104183033 | 4.64 | 2 | 5841 | 6502 | inactive
Nepl5 | SID104207697 | 11.2 | – | 5429 | 329 | inactive
Nelf-E | SID104190359 | 5.91 | 3.91 | 6587 | 6571 | inactive
Cyt-b5-r | SID104183100 | – | 5.07 | 95 | 6683 | inactive
Him | SID104199430 | 14.5 | 16.3 | 5484 | 6735 | inactive
CG14990 | SID104188241 | 4.3 | 5.31 | 5810 | 5541 | inactive
CG13426 | SID104186180 | 2.2 | 2.91 | 6217 | 6259 | inactive
dre4 | SID104188506 | 2.6 | 11.9 | 5529 | 4166 | inactive
CG43316 | SID104186088 | 15.4 | 28.4 | 6254 | 5275 | inactive
CG43316 | SID104186089 | 11 | 17.5 | 6246 | 5538 | inactive
CG43316 | SID104207004 | 7.32 | 12.3 | 2881 | 4839 | inactive
CG11977 | SID104194246 | 2.02 | 9.25 | 6822 | 6506 | inactive
CG32733 (retired record) + CG32797 | SID104197497 | 0.89 | 0.03 | 6152 | 6214 | inactive
CG5727 | SID104182674 | 12.8 | 18.1 | 6449 | 6139 | inactive
CG5727 | SID104208081 | – | 12.4 | 355 | 5646 | inactive
CAH15 | SID104184326 | 1.94 | 3.73 | 6495 | 6301 | inactive
CAH15 | SID104204631 | 7.15 | 4.13 | 5342 | 6434 | inactive
Mst77F | SID104191663 | 8.46 | 6.44 | 6180 | 6332 | inactive

Entries listed so far whose gene name starts with B or b (2):
gene | PubChem SID | infection score, replicate 1 | infection score, replicate 2 | cell count, replicate 1 | cell count, replicate 2 | call
Bx | SID104202405 | 2.64 | 4.53 | 6369 | 5767 | inactive
Bx | SID104207050 | 9.87 | 8.7 | 4317 | 5060 | inactive

The listing continues:
gene | PubChem SID | infection score, replicate 1 | infection score, replicate 2 | cell count, replicate 1 | cell count, replicate 2 | call
CG15414 | SID104180221 | 3.3 | 3.34 | 6306 | 6256 | inactive
CG15414 | SID104201845 | 5.79 | 4.46 | 6233 | 6809 | inactive
CG15414 | SID104207042 | 16.7 | 10.5 | 5123 | 3373 | inactive
Cyp28d2 | SID104183091 | 4.68 | 2.43 | 6175 | 6865 | inactive
Cyp28d2 | SID104206115 | 11.8 | 8.9 | 5849 | 6123 | inactive
Idgf2 | SID104183142 | 24.4 | 11.9 | 5953 | 6044 | inactive
Idgf2 | SID104205174 | 1.95 | 6.4 | 6984 | 6154 | inactive
ninaB | SID104196599 | 1.41 | 3.73 | 6604 | 6134 | inactive
ninaB | SID104206419 | 14.8 | 11.6 | 5252 | 4511 | inactive
CG14131 | SID104189927 | 1.51 | 3.68 | 6087 | 6248 | inactive
CG14131 | SID104206271 | 14.6 | 6.96 | 5264 | 6513 | inactive
NtR | SID104184420 | 10.5 | 4.51 | 5834 | 6169 | inactive
NtR | SID104206230 | 13.5 | 11 | 6277 | 6517 | inactive
P58IPK | SID104196196 | 4.72 | 10.2 | 5741 | 5618 | inactive
P58IPK | SID104205556 | 15.1 | 5.75 | 6451 | 5952 | inactive
Gbp2 | SID104185861 | 15.6 | 13.9 | 5665 | 4293 | inactive
CG9581 | SID104200487 | 8.23 | 6.39 | 6400 | 6279 | inactive
CG9581 | SID104201773 | 1.88 | 2.62 | 6373 | 6479 | inactive
CAHbeta | SID104194241 | 6.01 | 8.14 | 6437 | 6425 | inactive
CG15404 | SID104180210 | 7.51 | 4.46 | 6521 | 6195 | inactive
PICK1 | SID104182728 | 8.1 | 4.78 | 6037 | 6021 | inactive
CG1317 | SID104188097 | 10.9 | 12.5 | 7032 | 6027 | inactive
PPP1R15 | SID104184214 | 10.8 | 8.04 | 5312 | 1094 | inactive
PPP1R15 | SID104204557 | 6.7 | 4.28 | 4703 | 5824 | inactive
CG9864 | SID104187138 | 2.42 | 1.3 | 6288 | 6461 | inactive
CG9864 | SID104207309 | – | – | 242 | 338 | inactive
Prim2 | SID104191402 | 23.1 | 30.1 | 2556 | 3830 | inactive
CG1703 | SID104199556 | 8.79 | 1.48 | 6530 | 6332 | inactive
CG42808 + CG42807 | SID104186162 | 13.2 | 5.29 | 5860 | 6158 | inactive
CG42808 + CG42807 | SID104186758 | 14 | 6.11 | 5745 | 6191 | inactive
CG3760 | SID104184207 | 1.44 | 3.4 | 6192 | 6264 | inactive
SNCF | SID104189907 | 2.59 | 2.85 | 6098 | 5891 | inactive
